Biological target: SteC_(210-457;K256H), entire predicted kinase domain (Salmonella Typhimurium strain 14028s, UniProt D0ZIB5 210-457, K256H)
Assay: HDX-MS

B1: FMNL1 K190 24mer peptide (K190-K213) (peptide, UniProt O95466 190-213, looked up)
peptide: KGPPSSVPKSRHLTIKLTPAHSRK
notes: also called FMNL1 peptide; FMNL1 K190 peptide
B1: binds.
